Data: PMC3465485 (Antiviral research, 2012)

Key:
[1] = tested on: influenza A/California/07/2009 (H1N1) virus
[2] = biological target: A/California/07/2009 neuraminidase (Influenza A virus (A/California/07/2009(H1N1)), UniProt C3W6G3); format: biochemical

CCC(CC)O[C@@H]1C=C(C(=O)O)C[C@H](N)[C@H]1NC(C)=O [Oseltamivir Carboxylate, Oseltamivir carboxylate]
SI (CC50/EC50) [1]: >1667 | IC50 [2]: 0.0105 ± 0.0013 µM
